Source: patent publication EP0671947B1, “COMPOSITIONS FOR ELICITING CYTOTOXIC T-[…] AGAINST VIRUSES” (BOARD OF REGENTS THE UNIVERSITY OF TEXAS SYSTEM, priority 1991, dated 1993)

Test system: BALB/c mice
Test: ELISA for anti-peptide antibody response after immunization
Conditions: high molecular weight forms

With “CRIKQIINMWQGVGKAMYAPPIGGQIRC [Peptide 67]” the “anti-peptide antibody titers (in words)” value was “high antibody titers”.
